Results of unrelated studies side by side (data: NIAID ChemDB).

Shared fields: tests in culture; organism: Staphylococcus aureus; endpoint: MIC

An empty or dashed field is not shown. Rows are shuffled and stem from different studies.

structure | strain | value
CNC(=O)CC1NC(=O)c2csc(n2)-c2ccc(-c3nc(COC(=O)N(C)CCCC(C)=O)cs3)nc2-c2csc(n2)-c2csc(n2)C(C(O)c2ccccc2)NC(=O)CNC(=O)c2nc(sc2CO)C(C(C)C)NC(=O)c2nc1sc2C | ATCC 33591 (methicillin-resistant) | 1 µg/mL
CC(=O)NC[C@H]1CN(c2ccc(NC(=O)C3=CSNN3)c(F)c2)C(=O)O1 | ATCC 29213 (linezolid-resistant) | >64 µg/mL
CCCCCCCCCCCC[N+](C)(C)COCCCCCCC | ATCC33592 | 1.32 µM
CC[C@H]1OC(=O)[C@@](C)(F)C(=O)[C@H](C)[C@@H](O[C@@H]2O[C@H](C)C[C@H](N(C)C)[C@H]2O)[C@@]2(C)C[C@@H](C)C(=NC(C)=O)[C@H](C)[C@@H](OC/C(=N\OCc3ccc4cnn(C(N)=O)c4c3)CO2)[C@]1(C)O | 29213 (erythromycin A-susceptible) | 0.13 µg/mL
Cc1cn(-c2ccc(N3C[C@H](COc4ccon4)OC3=O)cc2F)cn1 | 122 (novobiocin-resistant) | 4 µg/mL
CCC1CN(c2cc3c(cc2F)c(=O)c(C(=O)O)cn3C2CC2)CCN1 |  | 0.22 µg/mL
O=C(CC(F)(F)F)NC[C@H]1CN(c2ccc3c(c2)-n2cccc2COC3)C(=O)O1 | ATCC 49951 (SMITH) | 8 µg/mL
CC[C@H]1OC(=O)[C@@](C)(F)C(=O)[C@H](C)[C@@H](O[C@@H]2O[C@H](C)C[C@H](N(C)C)[C@H]2O)[C@@]2(C)C[C@@H](C)C(=NC(C)=O)[C@H](C)[C@@H](OC/C(=N\OCc3cccc(C(N)=O)c3)CO2)[C@]1(C)O | 27660 (erythromycin A -resistant) | 0.13 µg/mL
NCCCCCCCCCCCCNc1cc2c(cc1F)c(=O)c(C(=O)O)cn2C1CC1 | ATCC 5278 (methicillin-resistant) | >100 µg/mL
N=Cc1cn(-c2ccc(N3C[C@H](COc4ccon4)OC3=O)cc2F)cn1 | 004 (methicillin quinolone-resistant) | 2 µg/mL
CNC(=O)CC1NC(=O)c2csc(n2)-c2ccc(-c3nc(C(=O)NCCC(=O)OC(C)(C)C)cs3)nc2-c2csc(n2)-c2csc(n2)C(C(O)c2ccccc2)NC(=O)CNC(=O)c2nc(sc2CSSc2nnc(C)s2)C(C(C)C)NC(=O)c2nc1sc2C | ATCC 33591 (methicillin-resistant) | 0.25 µg/mL
CC[C@H]1OC(=O)[C@@](C)(F)C(=O)[C@H](C)[C@@H](O[C@@H]2O[C@H](C)C[C@H](N(C)C)[C@H]2O)[C@@]2(C)C[C@@H](C)C(=NC(C)=O)[C@H](C)[C@@H](OC/C(=N\OCc3ccc(C(N)=O)s3)CO2)[C@]1(C)O | 33591 (erythromycin methicillin-resistant) | >64 µg/mL
O=C(O)c1cn(C2CC2)c2cc(NCCCO)c(F)cc2c1=O | ATCC 5278 (methicillin-resistant) | >100 µg/mL
CCCCCCCCCCOC[N+](C)(C)CCCCCCCC | ATCC33592 | 13.7 µM
CNC(=O)CC1NC(=O)c2csc(n2)-c2ccc(-c3nc(C(=O)NCCC(=O)O)cs3)nc2-c2csc(n2)-c2csc(n2)C(C(O)c2ccccc2)NC(=O)CNC(=O)c2nc(sc2CO)C(C(C)C)NC(=O)c2nc1sc2C | ATCC 33591 (methicillin-resistant) | 1 µg/mL
CC(=O)NC[C@H]1CN(c2ccc(-c3cnn(C(C)=O)c3)c(F)c2)C(=O)O1 | UC9213 (methicillin-susceptible) | 2 µg/mL
CN(C)CCCN(C)c1cc2c(cc1F)c(=O)c(C(=O)O)cn2C1CC1 | ATCC 6538P | 0.78 µg/mL
CS(=O)(=O)N[C@H]1CCN(c2ccc(N3C[C@H](CNc4ccon4)OC3=O)cc2F)C1 | 004 (methicillin quinolone-resistant) | 2 µg/mL
CCCCCCCCCCCC[N+](C)(C)COC1CCCCCCCCCCC1 | ATCC 6538 | 3.36 µM
CC(=O)NC[C@H]1CN(c2ccc(NC(=O)CO)c(F)c2)C(=O)O1 | ATCC 29213 (linezolid-resistant) | >64 µg/mL
CNC(=O)CC1NC(=O)c2csc(n2)-c2ccc(-c3nc(C(=O)NCCC(=O)OC(C)(C)C)cs3)nc2-c2csc(n2)-c2csc(n2)C(C(O)c2ccccc2)NC(=O)CNC(=O)c2nc(sc2CSSc2ncccn2)C(C(C)C)NC(=O)c2nc1sc2C | ATCC 33591 (methicillin-resistant) | 0.25 µg/mL
CC(=O)NC[C@H]1CN(c2ccc(N(C)C(=O)c3ccno3)c(F)c2)C(=O)O1 | ATCC 29213 (linezolid-resistant) | >64 µg/mL
CCCCCCCCCCCC[N+](C)(C)CSCCCC | ATCC33592 | 14.2 µM
CC(C)OC(=S)NC[C@H]1CN(c2ccc3c(c2)-n2cccc2COC3)C(=O)O1 | ATCC 33591 (MRSA) | 32 µg/mL
CS(=O)(=O)NC1CCN(c2ccc(N3C[C@H](COc4ccon4)OC3=O)cc2F)CC1 | 122 (novobiocin-resistant) | 8 µg/mL
CC(=O)NC[C@H]1CN(c2ccc(NC(=O)c3ccccn3)c(F)c2)C(=O)O1 | ATCC 29213 (linezolid-resistant) | >64 µg/mL
CNC(=O)CC1NC(=O)c2csc(n2)-c2ccc(-c3nc(C(=O)NCCC(=O)OC(C)(C)C)cs3)nc2-c2csc(n2)-c2csc(n2)C(C(O)c2ccccc2)NC(=O)CNC(=O)c2nc(sc2CSSc2ccccn2)C(C(C)C)NC(=O)c2nc1sc2C | ATCC 33591 (methicillin-resistant) | 0.06 µg/mL
CC[C@H]1OC(=O)[C@H](C)C(=O)[C@H](C)[C@@H](O[C@@H]2O[C@H](C)C[C@H](N(C)C)[C@H]2O)[C@@]2(C)C[C@@H](C)C(=NC(C)=O)[C@H](C)[C@@H](OC/C(=N\OCc3ccc(C(N)=O)s3)CO2)[C@]1(C)O | 29213 (erythromycin A-susceptible) | 0.25 µg/mL
CNC(=O)CC1NC(=O)c2csc(n2)-c2ccc(-c3nc(C(=O)NCCC(=O)OC(C)(C)C)cs3)nc2-c2csc(n2)-c2csc(n2)C(C(O)c2ccccc2)NC(=O)CNC(=O)c2nc(sc2CSSc2ccc(C(=O)O)cn2)C(C(C)C)NC(=O)c2nc1sc2C | ATCC 33591 (methicillin-resistant) | 16 µg/mL
CCCCN(CCCC)CCNc1cc2c(cc1F)c(=O)c(C(=O)O)cn2C1CC1 | ATCC 5278 (methicillin-resistant) | >100 µg/mL
O=CNC[C@H]1CN(c2ccc3c(c2)-n2cccc2COC3)C(=O)O1 | ATCC 49951 (SMITH) | 8 µg/mL
CC(=O)NC[C@H]1CN(c2ccc(-c3noc(C)n3)c(F)c2)C(=O)O1 | UC6685 (methicillin-resistant) | 8 µg/mL
CNC(=O)CC1NC(=O)c2csc(n2)-c2ccc(-c3nc(C(=O)NCCC(=O)O)cs3)nc2-c2csc(n2)-c2csc(n2)C(C(O)c2ccccc2)NC(=O)CNC(=O)c2nc(sc2CSC)C(C(C)C)NC(=O)c2nc1sc2C | ATCC 33591 (methicillin-resistant) | 0.125 µg/mL
CCC(=S)NC[C@H]1CN(c2ccc3c(c2)-n2cccc2COC3)C(=O)O1 | ATCC 33591 (MRSA) | 4 µg/mL
NCCCCNc1cc2c(cc1F)c(=O)c(C(=O)O)cn2C1CC1 | ATCC 5278 (methicillin-resistant) | >100 µg/mL
CCCCC(=S)NC[C@H]1CN(c2ccc3c(c2)-n2cccc2COC3)C(=O)O1 | ATCC 33591 (MRSA) | 16 µg/mL
CCCCCCCCCCCC[N+](C)(C)COC(C)CCC | ATCC 6538 | 7.14 µM
CC(=O)NC[C@H]1CN(c2ccc(-c3cnn(C(c4ccccc4)(c4ccccc4)c4ccccc4)c3)c(F)c2)C(=O)O1 | UC9213 (methicillin-susceptible) | >32 µg/mL
CC(=O)NC[C@H]1CN(c2ccc(N(C)S(C)(=O)=O)c(F)c2)C(=O)O1 | ATCC 29213 (linezolid-resistant) | >64 µg/mL
CCCCCCCCCCCC[N+](C)(C)COCC(C)CCC | ATCC 6538 | 1.65 µM
CC[C@H]1OC(=O)[C@@](C)(F)C(=O)[C@H](C)[C@@H](O[C@@H]2O[C@H](C)C[C@H](N(C)C)[C@H]2O)[C@@]2(C)C[C@@H](C)C(=NC(C)=O)[C@H](C)[C@@H](OC/C(=N\OCc3ccc(-n4cccn4)nc3)CO2)[C@]1(C)O | 33591 (erythromycin methicillin-resistant) | 64 µg/mL
COCC(C)Nc1cc2c(cc1F)c(=O)c(C(=O)O)cn2C1CC1 | ATCC 6538P | >100 µg/mL
CCCCCCCCCCCC[N+](C)(C)COCC(C)C | ATCC 6538 | 2.98 µM
CC(=O)NC[C@H]1CN(c2ccc(-c3cc(CO)on3)c(F)c2)C(=O)O1 | UC6685 (methicillin-resistant) | 1 µg/mL

Repeating the final 5 entries:

structure | strain | value
CCCCCCCCCCCC[N+](C)(C)COCC(C)CCC | ATCC 6538 | 1.65 µM
CC[C@H]1OC(=O)[C@@](C)(F)C(=O)[C@H](C)[C@@H](O[C@@H]2O[C@H](C)C[C@H](N(C)C)[C@H]2O)[C@@]2(C)C[C@@H](C)C(=NC(C)=O)[C@H](C)[C@@H](OC/C(=N\OCc3ccc(-n4cccn4)nc3)CO2)[C@]1(C)O | 33591 (erythromycin methicillin-resistant) | 64 µg/mL
COCC(C)Nc1cc2c(cc1F)c(=O)c(C(=O)O)cn2C1CC1 | ATCC 6538P | >100 µg/mL
CCCCCCCCCCCC[N+](C)(C)COCC(C)C | ATCC 6538 | 2.98 µM
CC(=O)NC[C@H]1CN(c2ccc(-c3cc(CO)on3)c(F)c2)C(=O)O1 | UC6685 (methicillin-resistant) | 1 µg/mL